{"source": "paper PMC13334477", "about": "(RSC Medicinal Chemistry, 2026)", "key": {"[1]": {"system": "HIVpro1, HIVpro2, LTR4 and Htel DNA G4s", "experiment": "FRET melting assay, four DNA G4s together", "assay_type": "binding", "conditions": "average of the four ratios ΔT1/2 (+10µM ds26)/ΔT1/2 (No ds26)"}, "[2]": {"system": "rLTR4-3′Cy5 (parallel RNA G4)", "experiment": "Ligand-induced fluorescence quenching assay (FQA), rLTR4-3′Cy5", "assay_type": "binding, HIV-1", "conditions": "Ka (+10µM ds26)/Ka (No ds26)", "experimental": "(§1) Cy5 labelled oligonucleotides were purchased lyophilized and RP-cartridge purified from Eurogentec (Kanaka Eurogentec, Seraing, Belgium). The ligand-induced fluorescence quenching assay was conducted as previously described.[47] A Stratagene Mx3005P instrument was used to carry out the assay in 96-well plates. The filters for excitation and emission were set at 635 nm and 665 nm, respectively. The gain was used at 8×. The labeled oligonucleotide was used at 10 nM, and the buffer was 10 mM lithium cacodylate (pH 7.2), 10 mM KCl, and 90 mM LiCl in a final volume of 50 μL. The oligonucleotide was heated at 90 °C for 5 min and put in ice to anneal. […] The instrument was programmed to heat the plate for 10 min at 25 °C and measure the fluorescence after 1 min for 5 cycles. The fluorescence of each sample was normalized, and the fluorescence of the ligand alone was subtracted.\n(§2) We then addressed the binding of the DBA series to the rLTR4 RNA G4. […] We have therefore used a ligand-induced fluorescence quenching assay (FQA) to analyse the interaction of the DBAs with either 5′ or 3′ fluorescently labelled RNAs (Fig. S8). […] To conduct a fluorescence quenching experiment, a CY5 fluorophore is attached on the 3′ or 5′ end of the RNA. […] Thus, upon interaction of the ligand with the G-quartet, the ligand induces the quenching of the fluorescence emission. […]"}, "[3]": {"system": "rLTR4-5′Cy5 (parallel RNA G4)", "experiment": "Ligand-induced fluorescence quenching assay (FQA), rLTR4-5′Cy5", "assay_type": "binding, HIV-1", "conditions": "Ka (+10µM ds26)/Ka (No ds26)", "experimental": "as §1, §2"}}}
{"smiles": "COc1ccc2c(ccc3c2cc2c4ccc(OC)cc4ccc2[n+]3-c2ccc([N+](=O)[O-])cc2)c1", "note": "[DBA4]", "values": [{"measurement": "Specificity Index (FRET melting)", "setting": "[1]", "result": 0.8}, {"measurement": "Specificity Index rLTR4-3′Cy5 FQA", "setting": "[2]", "result": 0.6}, {"measurement": "Specificity Index rLTR4-5′Cy5 FQA", "setting": "[3]", "result": 0.5}]}
